Results of unrelated studies side by side (data: NIAID ChemDB).

Shared fields: growth or infection tests; organism: Candida albicans; read-out: MIC

Neighbouring rows are from separate reports.

compound	strain	result
C[C@@H](c1ncncc1F)[C@](O)(Cn1cncn1)c1ccc(F)cc1F	JL2052 (FLU-R)	2 µg/mL
C[C@H](n1ccnn1)[C@@](O)(Cn1cncn1)c1ccc(F)cc1F	TA	>100 µg/mL
Oc1cc2ccccc2cc1-c1n[nH]c(=S)n1Cc1ccccc1	ATCC 2091	125 µg/mL
C[C@@H](n1ccnn1)[C@@](O)(Cn1cncn1)c1ccccc1F	IFO 0583	50 µg/mL
C=CCNC(=S)Nc1ccc2c(c1)Sc1ccccc1O2	C316	5 µg/mL
C[C@H](n1ccnn1)[C@](O)(Cn1cncn1)c1ccc(F)cc1	TA	25 µg/mL
CCCCN1/C(=C2\CCN(Cc3ccccc3)CC2=O)Sc2ccccc21	ATCC 14053	50 µg/mL
Nc1ccc2c(c1)Sc1ccccc1O2	C316	>125 µg/mL
C=C1CCC(=O)C(C)(C)C1CCc1ccc2c(c1)C(=O)C=CC2=O	-	3 µg/mL
CCC(C)OC(=O)/C=C/c1ccccc1	-	0.001 µg/mL
CSc1ccccc1NC1CCCCCCCCCCC1.CSc1ccccc1NC1CCCCCCCCCCC1	ATCC 10231	>100 µg/mL
CO[C@@H]1OC(=O)C=C2C1C=C1OC(=O)[C@@]3(C)CCC[C@@]2(C)[C@@H]13	CECT 1394	<6.25 µg/mL
C[C@@H](N1CC[n+]2cc(-c3ccccc3)[nH]c2C1)[C@](O)(C[n+]1cnc[nH]1)c1ccc(F)cc1F	Y0109	0.0325 µg/mL
CCOC[N+](C)(C)Cc1cc(N=Nc2ccc(C)cc2)ccc1O	-	688 µM
O=C1CCC/C1=C1/Sc2ccccc2N1C1CCCCCC1	ATCC 10231	100 µg/mL
CC(C)NC(=O)/C=C/c1ccccc1	-	0.002 µg/mL
COc1ccc(C2CC(=O)CC(c3ccc(OC)cc3)N2OCCc2nc3ncccc3[nH]2)cc1	NCIM-C27	50 µg/mL
C[N+](C)(COC1CCCCCC1)Cc1cc(N=Nc2ccc(Cl)cc2)ccc1O	-	68 µM
Cc1ccc(S(=O)(=O)NC(=O)Nc2ccc3c(c2)Sc2ccccc2O3)cc1	C316	12 µg/mL
CCCCCCCCOc1ccc(C(=O)NC2C[C@@H](O)[C@@H](O)NC(=O)C3[C@@H](O)[C@@H](C)CN3C(=O)C(C(C)O)NC(=O)C([C@H](O)[C@@H](O)c3ccc(O)cc3)NC(=O)C3C[C@@H](O)CN3C(=O)C(C(C)O)NC2=O)cc1	86-21B	0.25 µg/mL
O=C1CC(c2ccc(Cl)cc2)N(OCCc2nc3ncccc3[nH]2)C(c2ccc(Cl)cc2)C1	51 (NCIM-C27)	25 µg/mL
C[C@@H](n1ccnn1)[C@@](O)(Cn1cncn1)c1ccc(F)cc1	TA	100 µg/mL
CCCCOC[N+](C)(C)Cc1cc(N=Nc2ccc(Cl)cc2)ccc1O	-	304 µM
Cc1ccccc1Nc1nnc(Cn2c(-c3ccc(Cl)cc3)nc3ccccc32)s1	-	12.5 µg/mL
CCCCCCOC[N+](C)(C)Cc1cc(N=Nc2ccc(C)cc2)ccc1O	-	38 µM
CCCC(=O)/C=C1\Sc2cc(F)ccc2N1C1=CCCCCC1	ATCC 10231	≥100 µg/mL
Oc1cc2ccccc2cc1-c1n[nH]c(=S)n1-c1ccc(F)cc1	ATCC 2091	250 µg/mL
CCC(=O)/C=C1\Sc2ccccc2N1C1CCCCCC1	ATCC 14053	25 µg/mL
Cc1nc2c(CN)c(-c3ccc(C)o3)c(CN)c(=O)n2[nH]1	-	1.56 µg/mL
Nc1cccc(S(=O)(=O)Nc2ccc3c(c2)Sc2ccccc2O3)c1	C316	10 µg/mL
Cc1ccc(Nc2nnc(Cn3c(-c4ccc(Cl)cc4)nc4ccccc43)s2)cc1	-	100 µg/mL
O=[N+]([O-])c1ccccc1S(=O)(=O)Nc1ccc2c(c1)Sc1ccccc1O2	C316	3 µg/mL
CCCCCCCCCCCCOC[N+](C)(C)Cc1cc(N=Nc2ccc(C)cc2)ccc1O	-	1986 µM
Clc1ccc(Nc2nnc(Cn3c(-c4ccc(Cl)cc4)nc4ccccc43)s2)cc1	-	25 µg/mL
Cc1c(O)cccc1C(=O)N[C@@H](CSc1ccccc1)[C@H](O)CN1C[C@H]2CCCC[C@H]2C[C@H]1C(=O)NC(C)(C)C	I116A	>64 µg/mL
CCCCN1/C(=C/C(=O)c2ccccc2)Sc2ccccc21	ATCC 10231	50 µg/mL
CC(=O)c1ccc2c(c1)N(C(=O)CN1C(=O)C=CC1=O)c1ccccc1S2	NCIM no 300	>50 µg/mL
Fc1ccccc1Nc1nnc(Cn2c(-c3ccc(Cl)cc3)nc3ccccc32)s1	-	25 µg/mL
CCCCC(=O)OC1CC(OC(C)C(C)C(O)C(C)C(O)C(C)C2OC(=O)/C=C/CC(O)CC(O)CC(O)CCC(C)C(O)C[C@@]3(O)O[C@H](CC(O)CC(OC(=O)CC(=O)O)CCCC(O)C4OC4C2C)C[C@H](O)[C@H]3O)OC(C)C1O	ATCC 90029	>100 µg/mL
COC(=O)c1cc2ccccc2cc1-c1n[nH]c(=S)n1Cc1ccccc1	ATCC 2091	250 µg/mL
CC1(C)CCC[C@]2(C)[C@@H](C=O)C(C=O)=CC[C@@H]12	ATCC 18804 and ATCC 28815 26555 24433 64544 64550	0.78–1.56 µg/mL
CCCCCOC[N+](C)(C)Cc1cc(N=Nc2ccc(Cl)cc2)ccc1O	-	875 µM
O=C(N/N=C/c1ccnc2ccccc12)c1ccccc1SSc1ccccc1C(=O)N/N=C/c1ccnc2ccccc12	-	25–50 µg/mL
C[C@]1(C(=O)O)CCC[C@]2(C)C3CC(=O)O[C@@]3(CI)C=C[C@@H]12	CECT 1394	>100 µg/mL
CCCC(=O)/C=C1\Sc2ccccc2N1/C1=C/CCCCCCCCCC1	ATCC 10231	>100 µg/mL
OC(Cn1cncn1)(Cn1cncn1)c1ccc(F)cc1F	-	0.097 µg/mL
O=C(NNC(=S)NCc1ccccc1)c1cc2ccccc2cc1O	ATCC 2091	250 µg/mL
CC(/C=C/C=C(\C)C(O)C(C)C(=O)O[C@H]1C[C@@H](C)C=C2C=C[C@]3(C)O[C@@H](O)CC(=O)[C@]3(C)[C@H]21)=C\C=C\C(=O)O	579A	0.78 µg/mL
O=C(O)c1c(Br)c(Br)c(Br)c(Br)c1S(=O)(=O)Nc1ccc2c(c1)Sc1ccccc1O2	C316	16 µg/mL
Cc1ccc(Cn2cncc2CNc2cccc(-c3ccccc3)c2)cc1	3 strains	6.25–12.5 µM
O=C(/C=C/c1ccccc1)N(CCO)CCO	-	0.003 µg/mL
C[C@H](n1ccnn1)[C@@](O)(Cn1cncn1)c1ccccc1F	TA	>100 µg/mL
CCC(=O)C1Sc2ccccc2N(C2CCCCCC2)C1=O	ATCC 14053	≥100 µg/mL
COc1ccccc1/C=N/NC(=O)c1cc(Cl)ccc1SSc1ccc(Cl)cc1C(=O)N/N=C/c1ccccc1OC	-	250 µg/mL
NNC(=O)c1cc2ccccc2cc1O	ATCC 2091	250 µg/mL
COC(=O)[C@@]1(C)CCC[C@]2(C)c3cc(=O)occ3C=C[C@@H]12	CECT 1394	>100 µg/mL
O=C(/C=C/c1ccccc1)Oc1cccc2cccc(O)c12	-	0.003 µg/mL
CCCCCCCCCCOC[N+](C)(C)Cc1cc(N=Nc2ccc(Cl)cc2)ccc1O	-	504 µM
C=C1[C@H](OC(=O)C(F)(F)F)C[C@@H]2[C@](C)(CCC[C@]2(C)C(=O)OC)[C@H]1CC(=O)OC	CECT 1394	>100 µg/mL
O=C(NNCc1ccc(Cl)cc1Cl)c1ccccc1SSc1ccccc1C(=O)NNCc1ccc(Cl)cc1Cl	-	>250 µg/mL
CC1C(=O)C(C)C(c2ccc(Cl)cc2)N(OCCc2nc3ncccc3[nH]2)C1c1ccc(Cl)cc1	51 (NCIM-C27)	12.5 µg/mL

A second listing of 5 rows from above:

| compound | strain | result |
|---|---|---|
| OC(Cn1cncn1)(Cn1cncn1)c1ccc(F)cc1F | - | 0.097 µg/mL |
| O=C(O)c1c(Br)c(Br)c(Br)c(Br)c1S(=O)(=O)Nc1ccc2c(c1)Sc1ccccc1O2 | C316 | 16 µg/mL |
| CCCCCCCCCCCCOC[N+](C)(C)Cc1cc(N=Nc2ccc(C)cc2)ccc1O | - | 1986 µM |
| CSc1ccccc1NC1CCCCCCCCCCC1.CSc1ccccc1NC1CCCCCCCCCCC1 | ATCC 10231 | >100 µg/mL |
| CC(C)NC(=O)/C=C/c1ccccc1 | - | 0.002 µg/mL |

Blank or dashed fields: not listed here. a–b is a range or a potency band.